This note sets out measurements from publication PMC12066687 (Frontiers in Immunology, 2025).

This data set relates to VSV-EBOV-GP. It is filed as cell-based, Ebola virus (EBOV/H.sap-tc/COD/76/Yambuku-Mayinga).

Some results come without the dose or concentration used.

On to `CC/C(=C(\c1ccccc1)c1ccc(OCCN(C)C)cc1)c1cccc(NS(=O)(=O)NC2CCOC2)c1` (stereo not shown) [Compound 4], for which the “increase in cellular antiviral potency compared to 1” value is reported as roughly 2 fold.
